From PMC5775216

Amino acid sequences for entries named in this document (tags omitted). A change or cut given only in a name is not applied to a line headed by its entry.
UniProt Q83RR0: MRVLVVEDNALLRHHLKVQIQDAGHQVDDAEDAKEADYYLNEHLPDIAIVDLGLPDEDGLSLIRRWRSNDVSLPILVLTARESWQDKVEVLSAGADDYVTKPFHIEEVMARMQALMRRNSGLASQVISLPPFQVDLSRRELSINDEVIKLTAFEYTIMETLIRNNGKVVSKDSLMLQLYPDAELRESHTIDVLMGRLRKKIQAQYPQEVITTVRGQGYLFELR

Legend:
[1] = target: PhoP (phosphorylated, PhoP-P) (Shigella flexneri 2a 301 (Sf301)) (UniProt Q83RR0); test: EMSA; settings: acetylphosphate-phosphorylated, 0.16-1.6 uM; EMSA: Roche DIG Gel Shift Kit, 25 C 20 min, 6% native PAGE, buffer/pH not stated; recombinant protein; protein details: His-tag (pET-28a(+), BamHI/XhoI); label: digoxigenin (terminal transferase); probe letters rebuilt from the primers and the genome
[2] = target: PhoP (footprinting) (Shigella flexneri 2a 301 (Sf301)) (UniProt Q83RR0); test: DNase I footprinting; settings: phosphorylation ambiguous, footprinting: 500 ng probe in 40 ul binding buffer (not specified), 30 C 30 min, DNase I 25 C 1 min, recombinant protein, residues 1-223, protein details: His-tag (pET-28a(+), BamHI/XhoI), label: FAM, probe letters rebuilt from the primers and the genome, part of a longer molecule

| Sequence | binding result [1] | other results |
| --- | --- | --- |
| AATCACGTACTGAAATCGTTCTCAATCAACGTCATTTGTACATTTTGTGCGCTTTTCACTTTCAGAAGAACCTTAAGAAAACCTTAAGAGGCATTGTTTAGGTTTTGTTTAAGTTAATCGACCATACTGGAGATCGTCAGAAAATATTTCCAGGAGATGGCATGATTC (double strand) [yrbL promoter] | binds | – |
| CGGTAGATATAAAAACGTCACAATACACCGCGCTGTTTTTACTTACTATCAATCGTTTCTAAACAAGTTTTCATCAGGTATTCTACTGATGACTTGTTATGGAAGTGTTAAGGTAAAAAGATGGGGCTGGTAATCAAAGCCGCGCTCGGTGCGCTGGTAGTGCTGTTGATTGGTGTTTTAGCAAAAACGAAAAATTATTATATCGCCGGGCTGATTCCAC (double strand) [rstA promoter] | binds | – |
| CGTGAATACCATGCGGAATGACCGATTTTTACCGTTGGTAGTAAAACATTATCTTCAAATCAATAATCATCATGAATGTTTTGTTTATAATTGGTTGATCCTACTTTCATTATGATTTGCTCATATTTGGTAGAACATGTAACCATGGATTCACATATGCCATATACTTTGACCATGAGGGATGCT (double strand) [slyB promoter] | binds | – |
| CTGTTGTCCCATAACGTGTTGTTTAATTATTTGAGCCTAACTTTACCCGTGCATTCAGCAATGGGTAAAGTCTGGTTTATCGTTGGTTTAGTTGCCAGCAGGTATTATATCGCCATAAATGCTACGAATATTATTGGATTCTCCTTATTATTTGCGGCGCTTTTTTCACTTACCGGAGGTTATATGG (double strand) [mgtA promoter] | binds | – |
| GATCCGTAATTTAACTTTCGATTATCAGAAATTTCGAAAGGTAAAATATCCTTGTCACATTCGTTTGCAAAGGAAGGTAAATCTTTGCCAAATCAGAGGCGTCTCTGATATGTTTAACTCCCGTTTAACAACCATGGAGTATAGGGCAGTAGCCCGCAGTATGGATCGTCACCGACGTCATTTCAGCATCAGGCCTTTTAACGCCTGCCTTTCT (double strand) [yoaE promoter] | binds | – |
| TAAAGTGAAAGAGCCGTCACGAATCAATTTCGACACTGAGGTTATAACCTGGTTTTCTGTATATGTCATGTTGATGGAAAATATCAAAATCAGATATTTTTATTTCAATACAATGAGTTACAGATGCATCAGATACTGCAATTAGGAAATTTTTATTAAATCGACTGCATTCTTAGACGCGTTTTTGGCATAGATTGATAGCAGGGGAT (double strand) [hdeA promoter] | binds | – |
| TTATCGAACATATAGCTTTCCCCCTCTTTTTTTCAAAGCAAGACACAGGTAAATTTCTCCCGTTGCATTGATATATAACACAGCTCTCATGTTTTGGTTGAGGCTTTGTTTAATATGTTTTTGCATATATCGTCCCTTTATTCCGGATAAAACGGAATCTTTTCAGGGGTTTATCAACCACTTACTGAT (double strand) [icsA promoter] | binds | – |
| CCATATAACCTCCGGTAAGTGAAAAAAGCGCCGCAAATAATAAGGAGAATCCAATAATATTCGTAGCATTTATGGCGATATAATACCTGCTGGCAACTAAACCAACGATAAACCAGACTTTACCCATTGCTGAATGCACGGGTAAAGTTAGGCTCAAATAATTAAACAACACGTTATGGGACAACAG (double strand) [mgtA promoter footprint probe] | – | binding result ([2]; two protected regions): binds |
| GAGTACCTGTGTTGTTCTGAGGTGAACATATCACCTCTGTTCAGGTAGCCAAATTCAGTGTGCCACCTCAAGGTTCTTAGTGAGTCGTTTTTAAAAGATATGATAATATATCATTGTTTATGAATTGTTGATGTTTAATTTAGTAAATTATATCAAATATGCCATGGGTTTGCTATGTTATTCATCCAGTATCTGGAAATAAAATGCACCAGCTTTATTGGGTT (double strand) [shf promoter] | binds | – |
| TCTACTACTAGCATAGCAAAGCTACAATTAACATAACCTTAATAGACCCAACATAAAGAATAATCTGAATAGCTGCTCTATTTATTTCCGCTTGTTCAAGTTAAATATTTCCGCGCATCGATTAAAGATGATGCGTCGTTTTCTGCGATGGGAATAGTCAAAAAAGAAAAACCAAGTCTTTTTTGATGACAAAATGCAATCAAGGAAAAATTATTTTATTTTTTTTACGAGATACAACAATCATCT (double strand) [pagP promoter] | binds | – |
| AGAAAGGCAGGCGTTAAAAGGCCTGATGCTGAAATGACGTCGGTGACGATCCATACTGCGGGCTACTGCCCTATACTCCATGGTTGTTAAACGGGAGTTAAACATATCAGAGACGCCTCTGATTTGGCAAAGATTTACCTTCCTTTGCAAACGAATGTGACAAGGATATTTTACCTTTCGAAATTTCTGATAATCGAAAGTTAAATTACGGATC (double strand) [yoaE promoter footprint probe] | – | binding result [2]: binds |
| GAGTACCTGTGTTGTTCTGAGGTGAACATATCACCTCTGTTCAGGTAGCCAAATTCAGTGTGCCACCTCAAGGTTCTTAGTGAGTCGTTTTTAAAAGATATGATAATATATCATTGTTTATGAATTGTTGATGTTTAATTTAGTAAATTATATCAAATATGCCATGGGTTTGCTATGTTATTCATCCAGTATCTGGAAATAAAATGCACCAGCTTTATTGGGTT (double strand) [shf promoter footprint probe] | – | binding result [2]: binds |
| GCCTCAAATCAGTGCCGGATGGCGATGCTGTCCGGCCTGCTTATTAAGATTATCCACTTTTTCTTTTTTCACTTTACCTCCCCTCCCCGCTGGTTTATTTAATGTTTACCCCCATAAACACATAATCGCGTTACACTATTTTAATAATTAAGACAGGGAGAAATAAAAATGCGCGT (double strand) [phoPQ promoter] | binds | – |
| GGAAACTTTGTGCTCTCAGTAAGTTAAATATAACTTTTACAGGAAATAAGATCAGCCATTTTTTTATAAACATAAGCTATACGCTGTGCGAAAATATATTCGTGCTGCATTTACTTATTATCAATTAACTGTTATGCAAAACTACTTTGTGGATAAATTTTGGTCCTACCAAATCTGGCAGTTTTTGCGCTAAGAAACAGTCTGTCATCATTTCATTAGTATACTGAAATTGAAATAATCGCAG (double strand) [yhiW promoter] | binds | – |

Construct, isoform or probe ends are uncertain for at least one entry.
